Data reported in PubChem BioAssay AID624414 (National Center for Advancing Translational Sciences (NCATS), 2012).
The entries are a selection whose mix differs from that of the whole data set. Active and inactive are the calls of the source. Rule as the data show it: active = activation above about 50%; inconclusive = mostly about 30% to 49%; inactive = weaker than that.

Amino acid sequences for entries named in this document (tags omitted).
UniProt Q9GZU1, whole entry: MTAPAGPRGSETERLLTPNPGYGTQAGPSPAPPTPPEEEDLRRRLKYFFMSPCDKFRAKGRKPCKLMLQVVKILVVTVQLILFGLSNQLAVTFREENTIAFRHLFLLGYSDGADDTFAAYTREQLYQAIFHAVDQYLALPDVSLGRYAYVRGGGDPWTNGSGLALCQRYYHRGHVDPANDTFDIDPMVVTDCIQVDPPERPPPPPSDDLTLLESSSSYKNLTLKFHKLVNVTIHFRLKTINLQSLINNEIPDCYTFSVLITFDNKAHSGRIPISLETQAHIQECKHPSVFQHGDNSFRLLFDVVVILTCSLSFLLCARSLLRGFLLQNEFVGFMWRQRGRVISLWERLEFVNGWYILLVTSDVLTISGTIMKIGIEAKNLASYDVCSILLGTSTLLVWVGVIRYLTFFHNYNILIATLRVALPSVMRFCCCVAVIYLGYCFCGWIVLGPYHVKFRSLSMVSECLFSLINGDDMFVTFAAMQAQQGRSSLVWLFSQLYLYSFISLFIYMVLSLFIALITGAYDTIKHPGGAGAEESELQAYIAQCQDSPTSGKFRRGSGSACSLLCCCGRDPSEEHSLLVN

target: Mucolipin-1 (Homo sapiens) (UniProt Q9GZU1); assay: qHTS for Agonists of the Human Mucolipin Transient Receptor Potential 1 (TRPML1); details: TRPML1-expressing cells, Ca2+ dye fluorescence, FDSS; active compounds read high; also: 0% is about no effect
From the text: Mutations of human Mucolipin transient receptor potential 1 (TRPML1) cause type IV mucolipidosis (ML4), a devastating neurodegenerative disease in young children. […] Currently, there is no treatment for ML4. […] Under physiological conditions, TRPMLs regulate membrane trafficking by transducing information about PI(3,5)P2 levels into changes in juxtaorganellar Ca2+, thereby triggering membrane fusion/fission events in the late endocytic pathways (endolysosomal trafficking). In addition, TRPML1 mediates release of Fe2+ from late endosomes and lysosomes, which is essential for cellular iron metabolism. Thus, impaired ion (Ca2+ and Fe2+) homeostasis underlies lysosomal dysfunction and ML4 phenotypes. In ML4 cells, the problem is twofold. First, defective Ca2+-dependent membrane trafficking due to TRPML1-deficiency causes accumulation of lipids and other bio-materials in the lysosome. The second strike comes from the lysosomal iron overload (due to impairment of TRPML1's Fe2+ conductivity), which converts the accumulated materials into the nondegradable (resistant to lysosomal degradation) lipofuscin (also called aging pigment) in the lysosome. Lipofuscin accumulation dramatically compromises the functions of lysosomes.
Niemann-Pick type C (NPC) disease is another lysosome storage disease (LSD) with severe neurodegeneration during the childhood. Currently, there is no cure for NPC. […] Thus, TRPML1 is likely to be an essential regulator of lysosome ion homeostasis. We specifically hypothesize that stimulating TRPML1's Fe2+/Ca2+ channel activity in the lysosome using synthetic agonists can alleviate neurodegeneration associated with ML4 or NPC.
To this end, a high throughput screen was developed in a miniaturized format to screen against the Molecular Libraries Small Molecule Repository (MLSMR) to find small molecules that act either as inhibitors or agonist against the TRPML1 channel.
NIH Chemical Genomics Center [NCGC]
NIH Molecular Libraries Probe Centers Network [MLPCN]
Assay Submitter (PI): Haoxing Xu, University of Michigan Ann Arbor
TRPML1-DL cells are dissociated from flasks, counted and, brought up to a density of 500,000 cells per mL of media containing a 1X Tet inducer. Using a Multidrop Combi, 3uL of this cell solution is dispensed to each well of a 1536 TC treated, black, clear bottom hi base plate for a final cell density of 1,500 cells per well. The assay plates are incubated overnight (approximately 16 hours) at 37 degrees C and 5% CO2. Using a Multidrop Combi, 2uL of ABD Ca8 no wash dye plus quencher is added to each well. The assay plates incubate at room temperature in the dark for 45-90 minutes. The assay plate is read on the FDSS using the following protocol: 10 second baseline read, 23nL of compounds and controls are added using 1536 pintool, agonist read for 110 seconds, 1 uL EC80 addition (4uM final 54-4 diluted in media), antagonist read for 110 seconds.

Row | Compound | activation
1 | O=C(O)c1cccc(Nc2c([N+](=O)[O-])cc([N+](=O)[O-])cc2[N+](=O)[O-])c1 | inactive: 0.934%
2 | O=c1[nH]c2ccccc2n1C1CCN(C(c2cccs2)c2nnnn2C2CCCC2)CC1 (centres undefined) | inactive: 1.08%
3 | CCc1cc(C(=O)NCC2(N3CCCCC3)CCCCC2)sc1C | inactive: 19.9%
4 | O=C(OC1CN2CCC1CC2)C1c2ccccc2C=Cc2ccccc21 (centres undefined) | inactive: -0.72%
5 | CCCCn1nnnc1C(c1cccc(OC)c1OC)N1CCC(n2c(=O)[nH]c3ccccc32)CC1 (centres undefined) | inactive: -0.347%
6 | CCOC(=O)N1CCC(Nc2ccc(C)cc2)CC1 | inactive: 0.425%
7 | COc1cccc(C(c2nnnn2C(C)(C)C)N2CCC(n3c(=O)[nH]c4ccccc43)CC2)c1OC (centres undefined) | inactive: 2.52%
8 | N/C(=N\O)c1c(N)no[n+]1[O-] | inactive: 1.31%
9 | O=Cc1ccc(N(CCCl)CCCl)cc1 | inactive: -0.602%
10 | O=c1[nH]c2ccccc2n1C1CCN(C(c2cccs2)c2nnnn2C2CCCCC2)CC1 (centres undefined) | inactive: 0.162%
11 | O=c1[nH]c2ccccc2n1C1CCN(C(c2ccnc3ccccc23)c2nnnn2C2CCCC2)CC1 (centres undefined) | inactive: -0.433%
12 | COc1ccc(C(=O)NCC2(N3CCOCC3)CCCCC2)cc1OC | inactive: 1.36%
13 | COc1cc(C(=O)NCC2(N3CCOCC3)CCCCC2)cc(OC)c1C | inactive: -0.824%
14 | CCCCn1nnnc1C(c1ccccc1)N1CCC(n2c(=O)[nH]c3ccccc32)CC1 (centres undefined) | inactive: -0.378%
15 | O=C(NCC1(N2CCOCC2)CCCCC1)c1cc(Br)ccc1Cl | inactive: 1.26%
16 | CC(C)(C)n1nnnc1C(c1cccc2ccccc12)N1CCC(n2c(=O)[nH]c3ccccc32)CC1 (centres undefined) | inactive: -0.221%
17 | CN(C)C1(CNC(=O)c2cccc(C#N)c2)CCCCC1 | inactive: -0.0408%
18 | O=c1[nH]c2ccccc2n1C1CCN(C(c2ccccc2)c2nnnn2C2CCCC2)CC1 (centres undefined) | inactive: -0.504%
19 | CCCN1CCC(Nc2cc(OC)cc(OC)c2)CC1 | inactive: 0.579%
20 | Cc1cc(N(CCCl)CCCl)ccc1C=O | inactive: 1.06%

Row | Compound | activation
21 | O=C(NCC1(N2CCOCC2)CCCCC1)c1ccccc1 | inactive: 0.804%
22 | c1ccc(CN2CCC(Nc3ccccc3)CC2)cc1 | inactive: 0.107%
23 | CCOC(=O)C(CC)C1=NC(C)(C)Cc2ccccc21.O=[N+]([O-])c1cc([N+](=O)[O-])c(O)c([N+](=O)[O-])c1 (centres undefined) | inactive: 1.4%
24 | O=C(NCC1(N2CCOCC2)CCCCC1)c1ccccc1[N+](=O)[O-] | inactive: 0.0619%
25 | N#Cc1ccc(C(=O)NCC2(N3CCCCC3)CCCCC2)cc1 | inactive: -0.335%
26 | O=C(NCC1(N2CCOCC2)CCCCC1)c1ccc([N+](=O)[O-])cc1 | inactive: 3.68%
27 | CC(C)(C)OC(=O)N1CCC(N(C(=O)c2ccccc2)c2ccc(Cl)cc2)CC1 | inactive: 0.65%
28 | Cc1ccccc1C(=O)NCC1(N(C)C)CCCCC1 | inactive: -0.102%
29 | CN(C)c1ccc(C(=O)NCC2(N3CCCCC3)CCCCC2)cc1 | inactive: -0.455%
30 | Cn1c(=O)[nH]cc(N(CCCl)CCCl)c1=O | inactive: 0.569%
31 | O=C(NCC1(N2CCCCC2)CCCCC1)c1ccco1 | inactive: 1.94%
32 | CC(C)(C)c1ccc(C(=O)NCC2(N3CCOCC3)CCCCC2)cc1 | inactive: -0.912%
33 | COc1ccc(C(c2nnnn2C2CCCCC2)N2CCC(n3c(=O)[nH]c4ccccc43)CC2)cc1 (centres undefined) | inactive: -0.284%
34 | CCN1CCC(Nc2cccc(F)c2)CC1 | inactive: 0.325%
35 | CC(C)(C)n1nnnc1C(c1ccnc2ccccc12)N1CCC(n2c(=O)[nH]c3ccccc32)CC1 (centres undefined) | inactive: -0.347%
36 | Cc1ccccc1NC1(C#N)CCN(Cc2ccccc2)CC1 | inactive: 0.325%
37 | Fc1ccccc1NC1CCN(Cc2ccccc2)CC1 | inactive: 0.383%
38 | Cc1ccc(Nc2c([N+](=O)[O-])cc([N+](=O)[O-])cc2[N+](=O)[O-])cc1 | inactive: 1.19%
39 | Cc1ccc(C(=O)NCC2(N3CCCCC3)CCCCC2)o1 | inactive: -0.51%
40 | Cc1ccc(NC2(C#N)CCN(Cc3ccccc3)CC2)cc1 | inactive: 0.911%

Row | Compound | activation
41 | CCC(c1nnnn1C1CCCCC1)N1CCC(n2c(=O)[nH]c3ccccc32)CC1 (centres undefined) | inactive: 1.06%
42 | COc1cccc(C(c2nnnn2C2CCCCC2)N2CCC(n3c(=O)[nH]c4ccccc43)CC2)c1OC (centres undefined) | inactive: 0.866%
43 | CN(C)C1(CNC(=O)c2ccc(C(C)(C)C)cc2)CCCCC1 | inactive: 3.62%
44 | CC(=O)N(c1ccccc1)C1CCNCC1 | inactive: -0.363%
45 | COc1cc(OC)cc(C(=O)NCC2(N3CCCCC3)CCCCC2)c1 | inactive: -0.0318%
46 | O=c1[nH]c2ccccc2n1C1CCN(C(c2ccnc3ccccc23)c2nnnn2C2CCCCC2)CC1 (centres undefined) | inactive: -0.756%
47 | CN1CCC(Nc2ccc(Cl)cc2)CC1 | inactive: 0.435%
48 | COc1cc(C(=O)NCC2(N3CCOCC3)CCCCC2)cc(OC)c1OC | inactive: 0.99%
49 | COc1cccc(C(c2nnnn2C2CCCC2)N2CCC(n3c(=O)[nH]c4ccccc43)CC2)c1OC (centres undefined) | inactive: -0.252%
50 | COc1cc(OC)cc(C(=O)NCC2(N3CCOCC3)CCCCC2)c1 | inactive: -0.228%
51 | CCC(CO)(C(=O)OC1CN2CCC1CC2)c1ccccc1 (centres undefined) | inactive: -0.0553%
52 | ClCCN(CCCl)c1ccc(C=C2C=CC=C2)cc1 | inactive: -0.444%
53 | NN(c1ccccc1)C1CCN(CCc2ccccc2)CC1 | inactive: -0.0313%
54 | O=C(O)C1(Nc2ccccc2)CCN(Cc2ccccc2)CC1 | inactive: -0.18%
55 | CC(C)(C)OC(=O)N1CCC(Nc2ccccc2)CC1 | inactive: 0.0726%
56 | O=c1[nH]c2ccccc2n1C1CCN(C(c2cc3ccccc3o2)c2nnnn2C2CCCC2)CC1 (centres undefined) | inactive: -0.599%
57 | CCCOc1ccc(C(=O)NCC2(N(C)C)CCCCC2)cc1 | inactive: -0.095%
58 | ClCCN(CCCl)c1ccccc1 | inactive: 0%
59 | CN1CCC(Nc2ccc(F)c(Cl)c2)CC1 | inactive: 0.531%
